Assay results: ChEMBL document CHEMBL6177980 (J Med Chem, 2025)

What was measured:
[1] = system: Severe fever with thrombocytopenia syndrome virus; assay: In vivo antiviral activity against SFTSV infected in mouse harboring IFNAR1tm1Agt assessed as improvement in platelet count treated orally once daily for 7 days; conditions: dose 2.5-100 mg/kg, route po, time 7.0 day
[2] = system: Severe fever with thrombocytopenia syndrome virus; assay: Antiviral activity against SFTSV infected in mouse harboring IFNAR1tm1Agt assessed as reduction in viral load in spleen treated orally once daily for 7 days; conditions: route po, time 7.0 day
[3] = system: Severe fever with thrombocytopenia syndrome virus; assay: Antiviral activity against SFTSV infected in mouse harboring IFNAR1tm1Agt assessed as reduction in viraemia in spleen treated orally once daily for 7 days; conditions: route po, time 7.0 day

Measured: Activity

CC(C)C(=O)OC[C@@]1(F)O[C@@H](n2ccc(=O)n(COC(=O)c3cccnc3)c2=O)[C@H](OC(=O)C(C)C)[C@@H]1OC(=O)C(C)C
active: [1] Dose-dependent-effect | [2] Dose-dependent-effect | [3] Dose-dependent-effect
